A mixed list of measured activities; the numbers were collected in NIAID ChemDB.

Common to all: whole-cell or culture tests; organism: HIV-2; cells: MT-4; endpoint: EC50

Lines come from different laboratories, so protocols vary. ECn is the concentration giving n% inhibition of infection, replication or growth. An empty or dashed field is not shown. Two numbers with a dash give a range or band.

compound,strain,method,result
O=C(O)c1cc(O)c(O)c(O)c1,ROD,cytopathic effect / MTT,12 µg/mL
CC(C)CCC[C@@H](C)[C@H]1CC[C@H]2[C@@H]3CC[C@H]4C[C@@H](CCC=C(c5cc(Cl)c(O)c(C(=O)O)c5)c5cc(Cl)c(O)c(C(=O)O)c5)CC[C@]4(C)[C@H]3CC[C@]12C,ROD,cytopathic effect / MTT,5.1 µM
O=C1c2ccccc2N(Cc2ccccc2-c2ccccc2)S(=O)(=O)N1Cc1ccccc1,ROD,p24,>125 µM
CC1CCC(C(C)C)/C(=N/NC(=S)Nc2ccccc2)C1,ROD,-,>108.1 µg/mL
Cc1c(Cc2ccccc2)nc(OC2CCCC2)[nH]c1=O,ROD,cytopathic effect / MTT,>200 µM
Nc1nc(NC2CC2)c2ncn(CCOCP(=O)(O)O)c2n1,ROD,cytopathic effect / MTT,0.1 µg/mL
O=C(O)Cc1ccc(O)c(O)c1,ROD,cytopathic effect / MTT,7 µg/mL
O=C1c2ccccc2N(COCc2ccccc2)S(=O)(=O)N1Cc1ccccc1,ROD,cytopathic effect,5.2–10.8 µM
CCOC(=O)CNc1nc(Nc2ccc(OCC)cc2)nc(Oc2cc(=O)oc3ccccc23)n1,ROD,MTT,>62.13 µg/mL
CC(NS(=O)(=O)c1ccc(Cl)cc1)c1nnc(SCc2ccccc2)o1,ROD,-,>65.63 µg/mL
COc1ccc(CCN2C(=O)/C(=C\c3ccccc3Cl)N(CCc3ccc(OC)c(OC)c3)C2=S)cc1OC,ROD,cytopathic effect / MTT,>19.5 µg/mL
O=C(COc1ccc2ccccc2c1)NCc1n[nH]c(=S)n1-c1ccc(Br)cc1,ROD,MTT,≥10.2 µg/mL
COc1ccc(CCN2C(=O)/C(=C\c3ccccc3)N(CCc3ccc(OC)c(OC)c3)C2=S)cc1OC,ROD,cytopathic effect / MTT,>56.6 µg/mL
CC(C)c1nc(CN(C)C(=O)N[C@H](C(=O)N[C@@H](Cc2ccccc2)C[C@H](O)[C@H](Cc2ccccc2)NC(=O)OCc2cncs2)C(C)C)cs1,ROD,cytopathic effect,0.1 µg/mL
C[C@]12CCC3C(CC=C4C[C@@H](O)CC[C@@]43C)C1CCC2C(=O)/C=C/c1ccc(Br)cc1,ROD,MTT,>13.3 µM
O=C(O)CCc1ccc(O)c(O)c1,ROD,cytopathic effect / MTT,7 µg/mL
C[C@]12CCC3C(CC=C4C[C@@H](O)CC[C@@]43C)C1CCC2C(=O)/C=C/c1cc(Br)ccc1O,ROD,MTT,>12.05 µM
C/C(=N\Nc1nc(-c2ccc(Cl)cc2)cs1)c1ccc2c(c1)OCO2,ROD,MTT,>21.83 µM
COc1ccc(NC(=S)NNC(=O)CNC(=O)COc2ccc3ccccc3c2)cc1,ROD,MTT,>13.2 µg/mL
O=S1(=O)N=C(OCc2ccccc2)c2ccccc2N1Cc1ccc(Cl)c(Cl)c1,ROD,cytopathic effect,>250 µM
COc1cc(/C=C/c2nc(NC(=S)Nc3cccc([N+](=O)[O-])c3)c3ccccc3n2)cc(OC)c1OC,ROD,MTT,>3.07 µg/mL
N#Cc1c(SCCCSc2nsc(-c3ccccc3)c2C#N)nsc1-c1ccccc1,ROD,cytopathic effect,>125 µg/mL
COc1ccc(CCN2C(=O)/C(=C\c3cccc(Oc4ccccc4)c3)N(CCc3ccc(OC)c(OC)c3)C2=S)cc1OC,ROD,cytopathic effect / MTT,>24.9 µg/mL
Oc1cccc(O)c1O,ROD,cytopathic effect / MTT,8 µg/mL
N#Cc1c(SSc2nsc(-c3ccccc3)c2C#N)nsc1-c1ccccc1,ROD,cytopathic effect,17.4 µg/mL
O=C1c2ccccc2N(Cc2ccc(Cl)cc2)S(=O)(=O)N1Cc1ccccc1,ROD,cytopathic effect,>50 µM
Brc1ccc(-c2csc(N/N=C/c3cccnc3)n2)cc1,ROD,MTT,>23.39 µM
CCOC(=O)CNc1nc(NC(=O)Nc2ccccc2)nc(Oc2cc(=O)oc3ccccc23)n1,ROD,MTT,>125 µg/mL
CC#CCN1c2ccccc2C(=O)N(Cc2ccccc2)S1(=O)=O,ROD,p24,>68 µM
O=C1c2ccccc2N(Cc2ccccc2)S(=O)(=O)N1Cc1ccccc1,ROD,cytopathic effect,≥40 µM
CCC(C)Oc1nc(Cc2ccccc2)cc(=O)[nH]1,ROD,cytopathic effect / MTT,>200 µM
Cc1cc(S(N)(=O)=O)ccc1NC(=O)COc1ccc(Cl)cc1C(=O)c1cc(Cl)cc(Cl)c1,-,cytopathic effect / propidium iodide,1–3 µM
O=C1C=CC(=C(c2ccc(O)cc2)c2ccc(O)cc2)C=C1,ROD,cytopathic effect / MTT,>100 µg/mL
COc1c(Cl)cc(C(=CCC(=O)N[C@@H]2CC[C@@]3(C)[C@@H](CC[C@@H]4[C@@H]3CC[C@]3(C)[C@@H]([C@H](C)CCCC(C)C)CC[C@@H]43)C2)c2cc(Cl)c(OC)c(C(=O)O)c2)cc1C(=O)O,ROD,cytopathic effect / MTT,>6 µM
Cn1c([S-])nc2nc(-c3ccccc3)c(-c3ccccc3)nc2c1=O.[Cl][Pt+2][Cl],ROD,cytopathic effect,>2.23 µg/mL
C/C(=N\Nc1nc(-c2ccc([N+](=O)[O-])cc2)cs1)c1ccc(Cl)c(Cl)c1,ROD,MTT,>14.07 µM
Cc1c(Cc2ccccc2)nc(OC2CCCCC2)[nH]c1=O,ROD,cytopathic effect / MTT,>200 µM
N#Cc1ccc(-c2csc(N/N=C/c3cccnc3)n2)cc1,ROD,MTT,>7.73 µM
O=C1c2ccccc2N(Cc2ccc(Cl)c(Cl)c2)S(=O)(=O)N1Cc1ccccc1,ROD,p24,>125 µM
Cc1ccnc2c1NC(=O)c1cccnc1N2C1CC1,ROD,MTT,>4 µM
O=C1c2ccccc2N(Cc2ccccc2)S(=O)(=O)N1Cc1ccc(Cl)cc1,ROD,p24,>38 µM
C[C@]12CCC3C(CC=C4C[C@@H](O)CC[C@@]43C)C1CCC2C(=O)/C=C/c1ccccc1C(=O)O,ROD,MTT,>13.98 µM
C/C(=N\Nc1nc(-c2ccc([N+](=O)[O-])cc2)cs1)c1ccc(-n2ccnc2)cc1,ROD,MTT,>38.9 µM
O=C1CN=C(COc2ccc3ccccc3c2)NN1,ROD,MTT,>5.2 µg/mL
C[C@]12CCC3C(CC=C4CC(O)CC[C@@]43C)C1CCC2C1=NN(C(N)=S)C(c2ccc(Br)cc2)C1,ROD,MTT,>11.78 µM
CCOC(=O)CNc1nc(Nc2ccccc2OC)nc(Oc2cc(=O)oc3ccccc23)n1,ROD,MTT,>72.3 µg/mL
Cc1ccc(/C=C/C(=O)C2CCC3C4CC=C5C[C@@H](O)CC[C@]5(C)C4CC[C@]23C)cc1,ROD,MTT,>51.7 µM
O=C(COc1ccc2ccccc2c1)NCc1n[nH]c(=S)n1Cc1ccccc1,ROD,MTT,>28.5 µg/mL
Nc1nc(NC2CCCCC2)c2ncn(CCOCP(=O)(O)O)c2n1,ROD,cytopathic effect / MTT,4.8 µg/mL
COc1ccc(CCN2C(=O)/C(=C\c3ccc(F)cc3)N(CCc3ccc(OC)c(OC)c3)C2=S)cc1OC,ROD,cytopathic effect / MTT,>18 µg/mL
CC1CCC(C(C)C)/C(=N/NC(=S)Nc2ccc(Cl)cc2)C1,ROD,-,>2.4 µg/mL
Cc1ccnc2c1NC(=O)c1cccnc1N2C1CC1,ROD,MTT,>4 µM
CC(C)CCC[C@@H](C)[C@H]1CC[C@H]2[C@@H]3CC[C@H]4C[C@H](NC(=O)C=C(c5cc(Cl)c(O)c(C(=O)O)c5)c5cc(Cl)c(O)c(C(=O)O)c5)CC[C@]4(C)[C@H]3CC[C@]12C,ROD,cytopathic effect / MTT,5.1 µM
COc1cc(/C=C/c2nc(NC(=S)Nc3cccc(C)c3)c3ccccc3n2)cc(OC)c1OC,ROD,MTT,>5.46 µg/mL
Cc1ccc(S(=O)(=O)NC(Cc2ccccc2)c2nnc(SCc3ccc(F)cc3)o2)cc1,ROD,-,>90.83 µg/mL
COc1c(Cl)cc(C(=CCN[C@H]2CC[C@@]3(C)[C@@H](CC[C@@H]4[C@@H]3CC[C@]3(C)[C@@H]([C@H](C)CCCC(C)C)CC[C@@H]43)C2)c2cc(Cl)c(OC)c(C(=O)O)c2)cc1C(=O)O,ROD,cytopathic effect / MTT,>125 µM
Cc1ccnc2c1NC(=O)c1cccnc1N2C1CC1,ROD,-,>40 µg/mL
Cc1ccc(S(=O)(=O)NC(C)c2nnc(SCc3ccc(Cl)cc3)o2)cc1,ROD,-,>27.93 µg/mL
O=C1c2ccccc2N(COCc2ccccc2)S(=O)(=O)N1COCc1ccccc1,ROD,cytopathic effect,>8 µM
CN(C)c1nc(N)nc2c1ncn2CCOCP(=O)(O)O,ROD,cytopathic effect / MTT,0.4 µg/mL
CCOC(=O)CNc1nc(NC(=O)Nc2ccc(OCC)cc2)nc(Oc2cc(=O)oc3ccccc23)n1,ROD,MTT,>125 µg/mL
C[C@]12CCC3C(CC=C4CC(O)CC[C@@]43C)C1CCC2C(=O)/C=C/c1ccc(/C=C/C(=O)C2CCC3CCC4C(CC=C5C[C@@H](O)CC[C@@]54C)[C@]32C)cc1,ROD,MTT,>47.75 µM
COc1cc(/C=C/c2nc(NC(=O)Nc3cccc(Cl)c3)c3ccccc3n2)cc(OC)c1OC,ROD,MTT,>2.08 µg/mL
N#Cc1c(SCCCCSc2nsc(-c3ccccc3)c2C#N)nsc1-c1ccccc1,ROD,cytopathic effect,>125 µg/mL
Cc1ccc(S(=O)(=O)NC(C)c2nnc(SCc3ccc(Br)cc3)o2)cc1,ROD,-,>75.33 µg/mL
CC(C)Oc1nc(Cc2ccccc2)cc(=O)[nH]1,ROD,cytopathic effect / MTT,>200 µM
Brc1ccc(-c2csc(N/N=C/c3ccccn3)n2)cc1,ROD,MTT,>2.71 µM
CC(NS(=O)(=O)c1ccc(Cl)cc1)c1nnc(SCc2ccc(Cl)cc2)o1,ROD,-,>14.08 µg/mL
O=C1c2ccccc2N(COCc2ccccc2)S(=O)(=O)N1COCc1ccccc1,ROD,p24,>44 µM
CCc1c(Cc2ccccc2)nc(OC(C)C)[nH]c1=O,ROD,cytopathic effect / MTT,>200 µM
C[C@]12CCC3C(CC=C4C[C@@H](O)CC[C@@]43C)C1CCC2C(=O)/C=C/c1ccc(C(F)(F)F)cc1,ROD,MTT,>55.38 µM
COc1ccc(NC(=O)Nc2nc(/C=C/c3cc(OC)c(OC)c(OC)c3)nc3ccccc23)cc1,ROD,MTT,>1.88 µg/mL
CSCCC(NS(=O)(=O)c1ccc(C)cc1)c1nnc(SCc2ccc(Br)cc2)o1,ROD,-,>11.8 µg/mL
COc1cc(/C=C/c2nc(NC(=S)Nc3cccc(Cl)c3)c3ccccc3n2)cc(OC)c1OC,ROD,MTT,>3.25 µg/mL
Nc1ncnc2c1ncn2[C@H]1C=C[C@@H](CO)O1,ROD,cytopathic effect / trypan blue,72 µM
COc1ccc(CCN2C(=O)/C(=C\c3ccccc3-c3ccco3)N(CCc3ccc(OC)c(OC)c3)C2=S)cc1OC,ROD,cytopathic effect / MTT,>17.3 µg/mL

Again, the opening 4 rows:

{"compound": "O=C(O)c1cc(O)c(O)c(O)c1", "strain": "ROD", "method": "cytopathic effect / MTT", "result": "12 µg/mL"}
{"compound": "CC(C)CCC[C@@H](C)[C@H]1CC[C@H]2[C@@H]3CC[C@H]4C[C@@H](CCC=C(c5cc(Cl)c(O)c(C(=O)O)c5)c5cc(Cl)c(O)c(C(=O)O)c5)CC[C@]4(C)[C@H]3CC[C@]12C", "strain": "ROD", "method": "cytopathic effect / MTT", "result": "5.1 µM"}
{"compound": "O=C1c2ccccc2N(Cc2ccccc2-c2ccccc2)S(=O)(=O)N1Cc1ccccc1", "strain": "ROD", "method": "p24", "result": ">125 µM"}
{"compound": "CC1CCC(C(C)C)/C(=N/NC(=S)Nc2ccccc2)C1", "strain": "ROD", "result": ">108.1 µg/mL"}